# System: stem rot of cherry tomatoes
# Test: Washing of cherry tomatoes, damaged at the stem: stem rot
# Type: in vivo
# Settings: 27° C.
substance,measurement,setting,value
chlorine,Percentage of Cherry Tomatoes that Have Stem Rot,1 d,6%
same,Percentage of Cherry Tomatoes that Have Stem Rot,2 d,15%
same,Percentage of Cherry Tomatoes that Have Stem Rot,3 d,22%
same,Percentage of Cherry Tomatoes that Have Stem Rot,4 d,35%
same,Percentage of Cherry Tomatoes that Have Stem Rot,5 d,47%
same,Percentage of Cherry Tomatoes that Have Stem Rot,6 d,60%

# — patent US20190327961A1, “STABLE SOLID COMPOSITION BASED ON AN AROMATIC COMPOUND AND USES THEREOF” (priority 2016, published 2019)
